Results of unrelated studies side by side (data: NIAID ChemDB).

All rows: whole-cell or culture tests; organism: HIV-1; cells: CEM + CEM-SS; measure: EC50

Two numbers with a dash give a range or band.

structure,strain,changes,method,value
Cc1cn([C@H]2C[C@H](N=[N+]=[N-])[C@@H](CO)O2)c(=O)[nH]c1=O,SK1,-,cytopathic effect / XTT,0.005 µM
CCCCCCCCCCCCCC(=O)O[C@@H](C[C@@H](Cc1ccccc1)C(=O)N[C@H]1c2ccccc2C[C@H]1OC(=O)CCCCCCCCCCCCC)CN1CCN(Cc2cccnc2)C[C@H]1C(=O)NC(C)(C)C,LAI,-,cytopathic effect / MTT,10 µM
Cc1cn([C@H]2C[C@H](N=[N+]=[N-])[C@@H](CO)O2)c(=O)[nH]c1=O,G691-2,-,cytopathic effect / XTT,>100 µM
O=c1c2cccn2c2ccccc2n1CCNC(=S)Nc1ccc(Br)cn1,IIIB,-,cytopathic effect / MTT,0.013 µM
CC(C)(C)OC(=O)N[C@@H](Cc1ccccc1)[C@H](O)CNC[C@@H](O)[C@H](Cc1ccc(OCC(=O)N2CCOCC2)cc1)NC(=O)OC(C)(C)C,RF,-,cytopathic effect / XTT,0.1–0.18 µM
CCCc1cc(=O)oc2c3c(c4c(c12)OC(C)(C)C=C4)O[C@@H](C)[C@H](C)[C@@H]3O,RF,-,syncytia,0.19 µM
COCCOCCOCCOCCOCCOCCOCCOC(=O)CCC(=O)O[C@@H]1Cc2ccccc2[C@@H]1NC(=O)[C@H](Cc1ccccc1)C[C@H](O)CN1CCN(Cc2cccnc2)C[C@H]1C(=O)NC(C)(C)C,LAI,-,cytopathic effect / MTT,<0.04 µM
Fc1cccc(F)c1C1SCc2nc3ccccc3n21,ED,-,cytopathic effect / XTT,0.98 µM
COc1ccc(/C=C/NC(=O)Nc2ccc(Cl)cn2)cc1OC,IIIB,-,cytopathic effect / MTT,4.8 µM
CCc1c(Sc2ccccn2)n(COCc2ccccc2)c(=O)[nH]c1=O,IIIB,RT-Y181C,cytopathic effect / XTT,3.4 µM
CCOP(=O)(OCC)c1cc(NC(=O)c2cc(NC(=O)c3cc(NC(=O)Nc4cc(C(=O)Nc5cc(C(=O)Nc6cc(P(=O)(OCC)OCC)c7cccc(P(=O)(OCC)OCC)c7c6)n(C)c5)n(C)c4)cn3C)cn2C)cc2c(P(=O)(OCC)OCC)cccc12,RF,-,cytopathic effect / XTT,>200 µM
O=c1[nH]cnc2c1ncn2[C@H]1CC[C@@H](CO)O1,BRU,-,cytopathic effect / XTT,2.3 µg/mL
O=C(O)CCCCCCCCCCCI,IIIB,-,cytopathic effect / XTT,30 ± 8.9 µM
CCCc1cc(=O)oc2c3c(c4c(c12)OC(C)(C)C=C4)O[C@H](C(C)C)[C@H](C)[C@@H]3O,RF,-,cytopathic effect / XTT,>100 µM
COC(=O)C(C)NP(=O)(OC[C@H]1C/C1=C/n1cnc2c(N)nc(N)nc21)Oc1ccccc1,-,-,-,3.5 µM
COC(OC)C(=O)[C@H]1[C@H](C(=O)OC[C@H]2O[C@@H](n3cc(C)c(=O)[nH]c3=O)C[C@@H]2N=[N+]=[N-])C[C@H]2[C@@H]3CCC4=CC(=O)C=C[C@]4(C)[C@H]3[C@@H](O)C[C@@]21C,-,-,cytopathic effect / XTT,0.035 µM
CCCc1cc(=O)oc2c3c(c4c(c12)OC(C)(C)CC4)O[C@H](C)[C@@H](C)[C@@H]3O,RF,-,XTT,0.23 µM
CC(C)(C)C(=O)SCCOP(=O)(OCCSC(=O)C(C)(C)C)OC[C@@H]1CC[C@H](n2cnc3c(N)ncnc32)O1,LAI,-,RT activity,0.0013 µM
CCOP(=O)(O)C(F)OCCn1cnc2c(N)ncnc21,RF,-,XTT,>100 µM
Cc1ccc(C(=O)NC(C)(C)C)c(C[C@@H](O)[C@H](Cc2ccccc2)NC(=O)[C@H](CC(N)=O)NC(=O)c2ccc3ccccc3n2)c1,RF,-,cytopathic effect / XTT,0.61 µM
Nc1ncnc2c1ncn2[C@H]1CC[C@@H](CO)O1,LAI,-,RT activity,0.54 µM
Cc1occc1C(=S)Nc1ccc(Cl)c(/C=N/OC(C)(C)C)c1,NL4-3 (RT Y188C),RT-Y188C,cytopathic effect / XTT,0.4 µM
Nc1ccn([C@H]2CC[C@@H](CO)O2)c(=O)n1,RF,-,cytopathic effect / XTT,0.048 µM
CC(=O)SCCOP(=O)(OCCSC(C)=O)OC[C@@H]1CC[C@H](n2cc(C)c(=O)[nH]c2=O)O1,LAI,-,RT activity,1.7 µM
Cc1c(O)cccc1C(=O)N[C@@H](CSc1ccccc1)[C@H](O)CN1C[C@H]2CCCC[C@H]2C[C@H]1C(=O)NC(C)(C)CO,RF,-,cytopathic effect / MTT,0.0342 µM
O=c1[nH]cnc2c1ncn2[C@H]1CC[C@@H](CO)O1,RF,-,cytopathic effect / XTT,2.25–2.45 µM
O=c1[nH]c(=O)n([C@H]2C=C[C@@H](CO)O2)cc1C#CCCO,LAI,-,RT activity,120 µM
COc1cc(C[C@H](C)[C@H](C)Cc2ccc(O)c(O)c2)ccc1O,IIIB,-,XTT,21 µg/mL
CCCCC[C@H](O)/C=C/[C@H]1C=CC(=O)[C@@H]1CCCCCCC(=O)O,IIIB,-,p24,1 µg/mL
CC(C)(C)OC(=O)N[C@@H](Cc1ccccc1)[C@H](O)CNC[C@@H](O)[C@H](Cc1ccc(OCC(=O)N2CCOCC2)cc1)NC(=O)OC(C)(C)C,RF,-,cytopathic effect / XTT,0.1 µM
CC(C)(C)NC(=O)[C@@H]1C[C@@H]2CCCC[C@@H]2CN1C[C@@H](O)[C@H](Cc1ccccc1)NC(=O)[C@H](CC(N)=O)NC(=O)c1ccc2ccccc2n1,RF,-,cytopathic effect / XTT,0.006 µM
CC(=O)SCCOP(=O)(OCCSC(C)=O)OC[C@H]1O[C@@H](n2cc(C)c(=O)[nH]c2=O)C[C@@H]1N=[N+]=[N-],LAI,-,RT activity,0.022 µM
COC(=O)C(C)NP(=O)(OC[C@@H]1C/C1=C/n1cnc2c(N)nc(N)nc21)Oc1ccccc1,-,-,-,0.55 µM
CC(C)(C)NC(=O)[C@H]1N(C(=O)[C@@H](O)[C@H](Cc2ccccc2)NC(=O)[C@H](CC(N)=O)NC(=O)COc2cccc(Nc3ccccc3)c2)CSC1(C)C,IIIB,-,-,0.04 µM
O=C(O)c1cc[c]([Sb](=[O])([OH])[OH])cc1[N+](=O)[O-],RF,-,cytopathic effect,8.68 µM
NC(=O)c1cn([C@H]2CS[C@H](CO)O2)cn1,RF,-,cytopathic effect / XTT,9 µg/mL
Cc1cc(SC2=C(O)C[C@@](CCc3ccsc3)(C(C)C)OC2=O)c(C(C)(C)C)cc1C,IIIB,-,cytopathic effect / XTT,0.14 µM
Nc1ccn([C@H]2CC[C@@H](CO)O2)c(=O)n1,RF,-,cytopathic effect / MTT,0.0947 µM
CCCCCCCCCCCCCC(=O)O[C@@H]1Cc2ccccc2[C@@H]1NC(=O)[C@H](Cc1ccccc1)C[C@H](O)CN1CCN(Cc2cccnc2)C[C@H]1C(=O)NC(C)(C)C,LAI,-,cytopathic effect / MTT,0.034 µM
O=c1c2cccn2c2cccc(F)c2n1CCNC(=S)Nc1ccc(Br)cn1,IIIB,-,cytopathic effect / MTT,0.00047 µM

A second listing of 3 rows from above:

structure,strain,changes,method,value
CC(C)(C)OC(=O)N[C@@H](Cc1ccccc1)[C@H](O)CNC[C@@H](O)[C@H](Cc1ccc(OCC(=O)N2CCOCC2)cc1)NC(=O)OC(C)(C)C,RF,-,cytopathic effect / XTT,0.1–0.18 µM
O=c1c2cccn2c2ccccc2n1CCNC(=S)Nc1ccc(Br)cn1,IIIB,-,cytopathic effect / MTT,0.013 µM
CC(=O)SCCOP(=O)(OCCSC(C)=O)OC[C@@H]1CC[C@H](n2cc(C)c(=O)[nH]c2=O)O1,LAI,-,RT activity,1.7 µM

An empty or dashed field is not shown. Conditions beyond the fields shown may differ between rows. ECn is the concentration giving n% inhibition of infection, replication or growth.